Pooled drug test results. Numbers come from NIAID ChemDB, via PubChem.

Shared fields: tests in culture; organism: Hepatitis C virus; endpoint: EC50

a–b is a range or a potency band. Rows are shuffled and stem from different studies. Blank or dashed fields: not listed here. ECn: concentration that inhibits the pathogen or its effect by n%.

compound	mutations	method	strain or isolate	cells	value
CN1C(=O)Cn2c(c(C3CCCCC3)c3ccc(C(=O)NC4(C(=O)Nc5ccc6c(c5)cc(C(=O)O)n6C)CCCC4)cc32)-c2ccccc21		replicon		Huh7	0.01–1 µM
COc1c(-c2ccc3cc(NS(C)(=O)=O)ccc3c2)cc(-n2ccc(=O)[nH]c2=O)cc1C(C)(C)C	C316Y	luciferase	genotype 1b Con1	Huh7	0.926 µM
CC(=O)N1c2cccc(O)c2NC2=C(C(=O)CC3(CCCCC3)C2)C1c1ccc(Cl)cc1Cl		luciferase / reporter gene / replicon	1b		8.51 µM
CNC(=O)c1c(-c2ccc(F)cc2)oc2cc(N3CCOCC3)c(OCc3cccc(OC)c3)cc12		replicon		Huh7	<1 µM
NC(=S)Nc1cccc(OCCCCCOc2ccccc2)c1		reporter gene / fluorescence		Ava5-EG(delta4AB)SEAP	0.001–1 µM
C[C@@H]1CN(C(=O)C2=Cc3ccccc3-c3c(C4CCCCC4)c4ccc(C(=O)NS(=O)(=O)N(C)C)cc4n3C2)C[C@H](C)O1		replicon		Huh7	0.01–1 µM
COC(=O)N[C@H](C(=O)N1CCC[C@H]1c1ncc(-c2ccc(-c3ccc(-c4cnc([C@@H]5CCCN5C(=O)[C@@H](NC(=O)OC)C(C)C)[nH]4)cc3)cc2)[nH]1)C(C)C		luciferase	1b	ET	0.0000052 µM
CNC(=O)c1c(-c2ccc(F)cc2)oc2cc(N(Cc3nc(C(=O)O)cs3)S(C)(=O)=O)c(OC(C)C)cc12		replicon		Huh7	>100 µM
NC(=S)Nc1cccc(NCCCCc2ccccc2)c1		reporter gene / fluorescence		Ava5-EG(delta4AB)SEAP	0.001–1 µM
O=C(O)c1ccc2c(C3CCCCC3)c3n(c2c1)CCOc1ncccc1-3		replicon		Huh7	1–10 µM
O=C(O)/C=C/c1ccc(NC(=O)C2(NC(=O)c3ccc4c(c3)nc(-c3ccoc3)n4C3CCCCC3)CCC2)cc1		replicon	1b		1.6 µM
CCCCCOc1ccc(N(C(C)=O)c2nc(-c3cccnc3)cs2)cc1F					<1 µM
O=C(O)c1ccc2c(C3CCCCC3)c3c4ccccc4[nH]c(=O)n3c2c1		replicon		Huh7	>10 µM
CCN(CC)C(=S)Nc1cccc(OCCCCCOc2ccc(-c3ccccc3)cc2)c1		reporter gene / fluorescence		Ava5-EG(delta4AB)SEAP	0.001–1 µM
CNC(=O)c1c(-c2ccc(F)cc2)oc2cc(N(CCF)S(C)(=O)=O)c(OC)cc12		replicon		Huh7	<1 µM
CS(=O)(=O)NC(=O)c1ccc2c(C3CCCCC3)c3n(c2c1)CC(C(=O)N1CCOCC1)=Cc1ccccc1-3		replicon		Huh7	0.01–1 µM
CNC(=O)c1c(-c2ccc(F)cc2)oc2cc(N3CCC3)c(OC(C)C)cc12		replicon		Huh7	<1 µM
CC(C)C(=O)N1c2cccc(O)c2NC2=C(C(=O)CC(C)(C)C2)C1c1ccc(OCc2ccccc2F)cc1F		luciferase / reporter gene / replicon	1b		1.43 µM
CNC(=O)c1c(-c2ccc(F)cc2)oc2cc(NC(=O)N3CCNCC3)c(OC(C)C)cc12		replicon		Huh7	<10 µM
CN(C)S(=O)(=O)NC(=O)c1ccc2c(C3CCCCC3)c3n(c2c1)CC(O)Cc1ncccc1-3		replicon		Huh7	0.01–1 µM
CNC(=O)c1c(-c2ccc(F)cc2)oc2cc(CN3CCOCC3)c(OC(C)C)cc12		replicon		Huh7	<10 µM
O=C1Cn2c(c(C3CCCCC3)c3ccc(C(=O)NC4(C(=O)Nc5ncc(-c6ccc(C(=O)O)cc6)s5)CCCC4)cc32)-c2ccccc2N1		replicon		Huh7	0.01–1 µM
CCCCCOc1ccc(N(C(=O)OC)c2nc(-c3ccc(F)c(F)c3)cs2)cc1C(F)(F)F					<1 µM
NC(=S)Nc1cccc(OCCCCCc2ccccc2)c1		reporter gene / fluorescence		Ava5-EG(delta4AB)SEAP	0.001–1 µM
O=C(O)c1ccc2c(C3CCCCC3)c3n(c2c1)CC(C(=O)N1CCOCC1)=Cc1ccc(Cl)cc1-3		replicon		Huh7	1–10 µM
CNC(=O)c1c(-c2ccc(F)cc2)oc2cc(NCC(O)CO)c(OC(C)C)cc12		replicon		Huh7	<10 µM
CC(=O)N1c2cccc(O)c2NC2=C(C(=O)CC(C)(C)C2)C1c1ccc(Oc2ccccc2-c2ccccc2)cc1Cl		luciferase / reporter gene / replicon	1b		7.54 µM
CC/C=N/N(c1ccc(OCCCCCCCC)cc1)c1nc(-c2cccnc2)cs1					<1 µM
CC1(C)CC(=O)C2=C(C1)Nc1c(O)cccc1NC2c1ccoc1		luciferase / reporter gene / replicon	1b		67.73 µM
NC(=O)N(c1ccc(OCC2CCCCC2)c(F)c1)c1nc(-c2ccc3c(c2)NC(=O)CO3)cs1					>10 µM
CN(C)c1ccc2c(c1)Cc1cc(NC(N)=S)ccc1-2		reporter gene / fluorescence		Ava5-EG(delta4AB)SEAP	0.001–1 µM
CCCc1cc(C(=O)N2c3cccc(O)c3NC3=C(C(=O)CC(C)(C)C3)C2c2ccc(OCc3ccccc3)cc2F)no1		luciferase / reporter gene / replicon	1b		5.77 µM

The last 2 rows once more:

{"compound": "CN(C)c1ccc2c(c1)Cc1cc(NC(N)=S)ccc1-2", "method": "reporter gene / fluorescence", "cells": "Ava5-EG(delta4AB)SEAP", "value": "0.001–1 µM"}
{"compound": "CCCc1cc(C(=O)N2c3cccc(O)c3NC3=C(C(=O)CC(C)(C)C3)C2c2ccc(OCc3ccccc3)cc2F)no1", "method": "luciferase / reporter gene / replicon", "strain or isolate": "1b", "value": "5.77 µM"}